Laboratory results: the supplement of paper PMC9844399
Only a part is listed here, and it is no random draw.

Tests used:
HeLa [1] = assay: nuclear count per well, robust Z-score vs DMSO; higher = more cells (less toxicity); conditions: 10 µM; 6 h
HeLa [2] = assay: MALAT1 nuclear FISH intensity, robust Z-score vs DMSO; higher = more nuclear MALAT1 lncRNA, active = -3 or less; conditions: 10 µM; 6 h
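Throughout, for MALAT1 nuclear FISH intensity, robust Z-score vs DMSO: High-content confocal imaging of branched-DNA amplified FISH in 384-well plates, Hoechst-defined nuclei, score is well value minus plate DMSO median over DMSO robust SD, four wells per compound.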
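Throughout, for nuclear count per well, robust Z-score vs DMSO: Hoechst-stained nuclei counted by automated confocal imaging of four fields per well in 384-well plates, with the robust Z-score based on the per-plate DMSO median and robust SD.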

COc1ccc(C=C(C#N)C#N)cc1 [Tyrphostin 1]
nuclear count per well (HeLa [1]): -0.159
MALAT1 nuclear FISH intensity (HeLa [2]): inactive: -1.73
